Consider one molecule from ChEMBL document CHEMBL4819138, “Promising anti-SARS-CoV-2 drugs by effective dual targeting against the viral and host proteases” (Bioorg Med Chem Lett, 2021).

In test [1] the target is Replicase polyprotein 1ab (Severe acute respiratory syndrome coronavirus 2) (UniProt P0DTD1). As to the kind of experiment: Inhibition of SARS-CoV-2 main protease at 100 microg/ml relative to control. As to conditions: dose 100.0 µg/ml.
Test [2] shares this target. The test can be described thus: Inhibition of SARS-CoV-2 papain-like protease at 100 microg/ml relative to control. As to conditions: dose 100.0 µg/ml.

Molecules are shown by their SMILES.

With `N=C(N/N=C/c1ccccc1O)c1nonc1NCNc1nonc1C(=N)N/N=C/c1ccccc1O`, the inhibition (usually the change of the read-out against control, counted positive when it falls) in test [1] was 69.8%; in test [2], 80%.
